The test concerns SARS-CoV replicon. Conditions: CC50 XTT / EC50 replicon.

Compound `C=CCn1c(S)nnc1CSc1ccccc1[N+](=O)[O-]` [SSYA10-001, 3-[(2-nitrophenyl)sulfanylmethyl]-4-prop-2-enyl-1H-1,2,4-triazole-5-thione] had a selectivity index (CC50/EC50) of 30.

The record behind these values is patent US9266844B2 (priority 2012, dated 2016).
